{"source": "PubChem BioAssay AID552", "about": "(SRMLSC, 2006)", "note": "This is a selection; strong and weak results do not stand in their true shares. Calls of active or inactive are those of the source. Rule as the data show it: active = inhibition above about 40%; inactive = the rest."}
{"assay": "antibacterial activity on E. coli BW25113 – strain BW25113 wild type, absorbance readout, primary screen (AID 552);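 also: bacteria exposed to compound for 20 hours at 37 °C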", "details": "E. coli BW25113 growth inhibition, OD600; at 10 µM; active compounds read high", "how_it_was_run": "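assay system = bacterial strain in a whole-cell growth screen | quantity = inoculum from a 1:1000 dilution of a 1.5 h subculture | buffer or medium = LB broth with 50 µg/mL kanamycin | compound dosing = one dose, 10 µM final | schedule = compound exposure of 20 h at 37 °C | technique = absorbance at 615 nm as a measure of bacterial growth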"}
{"smiles": "Cc1nc2ccc3ccccc3c2s1.O=[N+]([O-])c1cc([N+](=O)[O-])c(O)c([N+](=O)[O-])c1", "inhibition": "inactive: -14.7%"}
{"smiles": "Cc1ccc(C)c(NP(C)(=O)Oc2ccccc2)c1", "note": "(stereo unspecified)", "inhibition": "inactive: 2.35%"}
{"smiles": "CP(=S)(Nn1cnnc1)Oc1ccccc1", "note": "(stereo unspecified)", "inhibition": "inactive: 0.88%"}
{"smiles": "CP(=O)(Nc1ccccn1)Oc1ccccc1", "note": "(stereo unspecified)", "inhibition": "inactive: 5.39%"}
{"smiles": "CN(C)CCOC(=O)C(O)(c1ccccc1)C1CCCCC1", "note": "(stereo unspecified)", "inhibition": "inactive: -3.25%"}
{"smiles": "CP(=O)(Nc1ccc2c(c1)OCCO2)Oc1ccccc1", "note": "(stereo unspecified)", "inhibition": "inactive: 9.47%"}
